Data source: PubChem BioAssay AID504761 (Drosophila RNAi Screening Center, 2011)
Test: 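Genome-wide fly cell screen for genes dengue virus requires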 (primary screen). Cells: D.Mel-2 cells from Drosophila. Reagent: long dsRNA against Drosophila genes. Conditions: infection with dengue virus type 2; dose and infection time not stated. Read-out: 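Cells stained for dengue envelope protein and imaged; percent of infected cells per well on duplicate plates, ranked by infection, with stained nuclei counted for cell number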. Reading the numbers: infection score: higher = more virus-infected cells; cell count: higher = more cells in the well. Call rule: 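Low infection ranks in the two replicates (chance level up to 0.065) followed by a retest with a 1.5-fold or larger significant decrease, p below 0.05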. Calls: active = confirmed: knock-down lowers infection; inactive = not picked or not confirmed.
In all, the deposit lists about 22,000 reagents; below is a random part of those that have a named target and a result. Of all reagents, 116 (0.52%) are marked active. 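Calls depend on retest data that are not deposited; infection was ranked per plate without normalising between plates; the unit of the infection score is not given.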 Raw values are not corrected between plates. Reagents against one gene are numbered here. The record does not give: the amount of reagent, the time to read-out.

| gene knocked down | reagent no. | infection score, replicate 1 | infection score, replicate 2 | cell count, replicate 1 | cell count, replicate 2 | Outcome |
| --- | --- | --- | --- | --- | --- | --- |
| CG33309 | 1 | 2.83 | 2.42 | 5876 | 5630 | inactive |
| CG10565 | 1 | 2.77 | 17.1 | 6527 | 6331 | inactive |
| Upf3 | 1 | 33.6 | 47.8 | 5500 | 4704 | inactive |
| Upf3 | 2 | 24.4 | 4.56 | 4769 | 5898 | inactive |
| Nse4 (Non-SMC element 4) | 1 | 5.9 | 3.09 | 6168 | 6320 | inactive |
| Nse4 (Non-SMC element 4) | 2 | 10.7 | 9.36 | 5989 | 2061 | inactive |
| CG16789 | 1 | 2.02 | 4.4 | 6879 | 7296 | inactive |
| Idh (Isocitrate dehydrogenase) | 1 | 9.33 | 11.8 | 5486 | 5101 | inactive |
| CG10801 | 1 | 3.23 | 1.02 | 6973 | 6076 | inactive |
| tej (tejas) | 1 | 9.68 | 5.22 | 6898 | 6297 | inactive |
| tej (tejas) | 2 | 26.4 | 19.5 | 5751 | 4530 | inactive |
| Cyp309a2 (Cytochrome P450 309a2) | 1 | 6.27 | 3.44 | 6718 | 6389 | inactive |
| Cyp309a2 (Cytochrome P450 309a2) | 2 | 43.2 | 16.4 | 5323 | 6588 | inactive |
| CG17190 | 1 | 4.51 | 4.13 | 6518 | 6227 | inactive |
| Lcp65Ac | 1 | 1.11 | 4.59 | 5492 | 5856 | inactive |
| Lcp65Ac | 2 | 8 | 10.7 | 6122 | 5735 | inactive |
| CG31872 | 1 | 2.99 | 1.9 | 6730 | 6574 | inactive |
| CG31872 | 2 | 9.22 | 5.74 | 6419 | 6570 | inactive |
| Cyp6a13 (Cytochrome P450 6a13) | 1 | 10.5 | 6.68 | 5949 | 6243 | inactive |
| Eip74EF (Ecdysone-induced protein 74EF) | 1 | 4.18 | 10.6 | 5617 | 4172 | inactive |
| Eip74EF (Ecdysone-induced protein 74EF) | 2 | 2.14 | 2.1 | 5946 | 5868 | inactive |
| CG15330 | 1 | 2.38 | 1.56 | 6390 | 6855 | inactive |
| Snx21 (Sorting nexin 21) | 1 | 6.09 | 4.26 | 6093 | 6037 | inactive |
| Snx21 (Sorting nexin 21) | 2 | 10.9 | 17.4 | 2562 | 3642 | inactive |
| CG13457 | 1 | 0.86 | 1.35 | 6146 | 6604 | inactive |
| CG13457 | 2 | 5.62 | 8.5 | 6276 | 5891 | inactive |
| Gr64f (Gustatory receptor 64f) | 1 | 1.48 | 10.7 | 6350 | 5843 | inactive |
| Gr64f (Gustatory receptor 64f) | 2 | 4.44 | 3.24 | 6313 | 6986 | inactive |
| rig (rigor mortis) | 1 | 15.1 | 9.78 | 6258 | 6167 | inactive |
| rig (rigor mortis) | 2 | 3.24 | 3.12 | 6264 | 5925 | inactive |
| CG17994 | 1 | 5.3 | 18.5 | 6814 | 5268 | inactive |
| Jhbp11 (Juvenile hormone binding protein 11) | 1 | 2.79 | 12.2 | 6526 | 4605 | inactive |
| Jhbp11 (Juvenile hormone binding protein 11) | 2 | – | – | – | 406 | inactive |
| Ir85a (Ionotropic receptor 85a) | 1 | 3.55 | 27.9 | 6450 | 5638 | inactive |
| Ir85a (Ionotropic receptor 85a) | 2 | 16.4 | 12 | 6044 | 4175 | inactive |
| Uch-L5R (Uch-L5-related) | 1 | 3.58 | 4.88 | 6430 | 6838 | inactive |
| Ipk1 (Inositol phosphate kinase 1) | 1 | 14.2 | 29 | 6034 | 5431 | inactive |
| Ipk1 (Inositol phosphate kinase 1) | 2 | 16.3 | 27.4 | 5477 | 6450 | inactive |
| Ipk1 (Inositol phosphate kinase 1) | 3 | 8.06 | 3.15 | 6438 | 6804 | inactive |
| BicD (Bicaudal D) | 1 | 11.6 | 43.2 | 6472 | 4907 | inactive |
| smo (smoothened) | 1 | 0.96 | 1.35 | 6160 | 6369 | inactive |
| smo (smoothened) | 2 | 6.51 | 11.4 | 2195 | 4247 | inactive |
| Non1 (Novel nucleolar protein 1) | 1 | 9.78 | 8.47 | 4765 | 5218 | inactive |
| CG30403 | 1 | 3.91 | 24.2 | 6187 | 5251 | inactive |
| Ir7d (Ionotropic receptor 7d) | 1 | 6.42 | 5.43 | 5949 | 6132 | inactive |
| PGRP-LB (Peptidoglycan recognition protein LB) | 1 | 6.53 | 19.1 | 3552 | 4415 | inactive |
| ftz (fushi tarazu) | 1 | 8.29 | 7.55 | 6382 | 6267 | inactive |
| ftz (fushi tarazu) | 2 | 14.5 | 25.4 | 6358 | 5539 | inactive |
| CG32413 | 1 | 29.7 | 9.94 | 6343 | 6819 | inactive |
| CG15482 | 1 | 2.56 | 2.52 | 6379 | 6503 | inactive |
| CG18095 | 1 | 13.9 | – | 6492 | 425 | inactive |
| MICAL-like | 1 | 3.39 | 1.55 | 6761 | 6824 | inactive |
| eIF3f2 (eukaryotic translation initiation factor 3 subunit f2) | 1 | 4.51 | 18.4 | 6493 | 6304 | inactive |
| CG13131 | 1 | 1.3 | 18.5 | 7135 | 6725 | inactive |
| CG33137 | 1 | 3.08 | 16 | 6550 | 6434 | inactive |
| CG11248 | 1 | 24.1 | 9.75 | 5951 | 6349 | inactive |
| CG14969 | 1 | 8.79 | 5.56 | 6644 | 2610 | inactive |
| CG18537 | 1 | 10.6 | 22.1 | 5679 | 6087 | inactive |
| CG18537 | 2 | 1.57 | 5.18 | 6481 | 6317 | inactive |

Copied from the list.
Value of PGRP-LB (Peptidoglycan recognition protein LB) under “infection score, replicate 2”: 19.1
Jhbp11 (Juvenile hormone binding protein 11) #2, Outcome: inactive
Entry of Snx21 (Sorting nexin 21) #2 in “cell count, replicate 1”: 2562
